What was measured:
[1] = target: SARS-CoV-2 RBD (318–514), strain USA/IL1/2020, biotinylated (SARS-CoV-2) (UniProt P0DTC2); experiment: BLI
[2] = target: SARS-CoV-2 NTD (1–290), strain USA/IL1/2020, biotinylated (SARS-CoV-2) (UniProt P0DTC2); experiment: BLI

Row | Substance | Kd [1] [nM] | koff [1] [s⁻¹] | Kd [2] [nM] | koff [2] [s⁻¹]
1 | WRAIR-2151 (human IgG1) (from UniProt P01857) | < 0.001 | < 1e-07 | – | –
2 | WRAIR-2123 (human IgG1) (from UniProt P01857) | 0.0109 | 2.98e-06 | – | –
3 | WRAIR-2165 (human IgG1) (from UniProt P01857) | 0.0109 | 2.16e-06 | – | –
4 | WRAIR-2173 (human IgG1) (from UniProt P01857) | 0.0212 | 5.23e-06 | – | –
5 | WRAIR-2039 (human IgG1) (from UniProt P01857) | – | – | < 0.001 | < 1e-07
6 | WRAIR-2025 (human IgG1) (from UniProt P01857) | – | – | < 0.001 | < 1e-07
7 | WRAIR-2004 (human IgG1) (from UniProt P01857) | – | – | < 0.001 | < 1e-07
8 | WRAIR-2063 (human IgG1) (from UniProt P01857) | < 0.001 | < 1e-07 | – | –

Reference: publication PMC8642242
